Data reported in patent US6355627B1, “Branched cyclodextrin clathrate compound of hinokitiols and composition containing the same” (Takasago International Corporation, priority 1999, dated 2002).

Assay: Evaluation of corrosion of stainless test piece in aqueous solution
Conditions: 0.1% aqueous solution (1.0% for the clathrate), stirred

CC(C)c1cccc(=O)c(O)c1 [Hinokitiol]
Corrosion rate at 90° C., Sus 304 (90° C.): 3.27 mm/year and 3.27 mm mm/year | Corrosion rate at 25° C., Sus 304 (room temperature (25° C.)): 0.67 mm/year and 0.67 mm mm/year

Several values for one entry are separate records, joined by “and”; a condition that tells them apart may be missing. Identical values can stand only once.
